Measured data: PubChem BioAssay AID504761 (Drosophila RNAi Screening Center, 2011)
Purpose: 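Fly genes whose silencing reduces dengue virus type 2 infection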 (primary screen). Cell system: D.Mel-2 cells from Drosophila. Knock-down reagent: long dsRNA against Drosophila genes. Treatment: infection with dengue virus type 2; dose and infection time not stated. Read-out: 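Cells stained for dengue envelope protein and imaged; percent of infected cells per well on duplicate plates, ranked by infection, with stained nuclei counted for cell number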. Scale: infection score: higher = more virus-infected cells; cell count: higher = more cells in the well. Hit rule: 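Low infection ranks in the two replicates (chance level up to 0.065) followed by a retest with a 1.5-fold or larger significant decrease, p below 0.05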. Calls: active = confirmed: knock-down lowers infection; inactive = not picked or not confirmed.
In all, the deposit lists about 22,000 reagents; this is a random part of those with a known target gene and a result. Of all reagents, 116 (0.52%) got an active call. 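Calls depend on retest data that are not deposited; infection was ranked per plate without normalising between plates; the unit of the infection score is not given.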 The raw values are shown without normalisation. The record does not give: the amount of reagent, the time to read-out.

For CG15211 (GeneID 32006) [DRSC19657] the deposit lists infection score, replicate 1 = 6.29; infection score, replicate 2 = 2.91; cell count, replicate 1 = 6237; cell count, replicate 2 = 6119; inactive.
Against Desat1 (GeneID 117369) [DRSC16668], the values are infection score, replicate 1 = 8.87; infection score, replicate 2 = 18.1; cell count, replicate 1 = 5231; cell count, replicate 2 = 5828; inactive.
Desat1 (GeneID 117369) [DRSC23578] scored infection score, replicate 1 = 0.79; infection score, replicate 2 = 0.64; cell count, replicate 1 = 3301; cell count, replicate 2 = 2176; inactive.
For Galphaq (GeneID 36384) [DRSC07432], the entry reads infection score, replicate 1 = 4.81; infection score, replicate 2 = 9.5; cell count, replicate 1 = 5825; cell count, replicate 2 = 6441; inactive.
After knock-down of Galphaq (GeneID 36384) [DRSC25341] the results were infection score, replicate 1 = 1.58; infection score, replicate 2 = 2.87; cell count, replicate 1 = 6404; cell count, replicate 2 = 5751; inactive.
Depletion of ush (GeneID 33225) [DRSC00843] gave: infection score, replicate 1 = 0.83; infection score, replicate 2 = 2.06; cell count, replicate 1 = 3627; cell count, replicate 2 = 5299; inactive.
ush (GeneID 33225) [DRSC26524] scored infection score, replicate 1 = 1.21; infection score, replicate 2 = 0.57; cell count, replicate 1 = 2151; cell count, replicate 2 = 2100; inactive.
With knock-down of CG44085 (GeneID 34732) [DRSC23040], the screen gave infection score, replicate 1 = 1.77; infection score, replicate 2 = 1.08; cell count, replicate 1 = 6447; cell count, replicate 2 = 6742; inactive.
For CG31010 (GeneID 318555) [DRSC14006] the deposit lists infection score, replicate 1 = 1.07; infection score, replicate 2 = 0.98; cell count, replicate 1 = 6078; cell count, replicate 2 = 6329; inactive.
CG15530 (GeneID 43589) [DRSC15067] scored infection score, replicate 1 = 3.52; infection score, replicate 2 = 2.58; cell count, replicate 1 = 1051; cell count, replicate 2 = 6361; inactive.
After knock-down of CG15530 (GeneID 43589) [DRSC29873], the screen gave infection score, replicate 2 = 23.7; cell count, replicate 1 = 274; cell count, replicate 2 = 6162; inactive.
With knock-down of Nup205 (GeneID 33002) [DRSC19432], the screen gave infection score, replicate 1 = 9.58; infection score, replicate 2 = 1.51; cell count, replicate 1 = 5742; cell count, replicate 2 = 5772; inactive.
Myo95E (GeneID 2768680) [DRSC15821] scored infection score, replicate 1 = 1.53; infection score, replicate 2 = 6.58; cell count, replicate 1 = 6855; cell count, replicate 2 = 6234; inactive.
Alg9 (GeneID 43031) [DRSC14407] showed infection score, replicate 1 = 7.11; infection score, replicate 2 = 5.63; cell count, replicate 1 = 6677; cell count, replicate 2 = 6464; inactive.

Ordered by “infection score, replicate 2” (highest first): 2 of the entries above.
Myo95E (GeneID 2768680) [DRSC15821] → infection score, replicate 1 = 1.53; infection score, replicate 2 = 6.58; cell count, replicate 1 = 6855; cell count, replicate 2 = 6234; Call = inactive
Alg9 (GeneID 43031) [DRSC14407] → infection score, replicate 1 = 7.11; infection score, replicate 2 = 5.63; cell count, replicate 1 = 6677; cell count, replicate 2 = 6464; Call = inactive
